Results of unrelated studies side by side (data: NIAID ChemDB).

Common to all: tests in culture

MIC50, MIC90 and the like: level of inhibition, or share of isolates inhibited.

O=C(O)/C=C/c1ccccc1 ; strain: PYCC 2705 ; measure: EC50 ; read by: broth dilution / turbidity ; agent: Candida lusitaniae ; result: 0.1 µM
CCO[C@@H]1C[C@@H]([C@H](C)[C@H]2CC[C@]3(C)C4=C(CC[C@@]23C)[C@]2(C)CC[C@H](O)C(C)(C)[C@H]2CC4)CC[C@@H]1C ; strain: MTCC 183 ; measure: zone ; read by: agar diffusion / agar ; tested at: 0.5 µg/disc ; agent: Candida albicans ; result: 12 mm
C[C@H]1[C@H](O)[C@@H](C)/C=C/C=C/C=C/C=C/C=C/C=C/C=C/[C@H](O[C@@H]2O[C@H](C)[C@@H](O)[C@H](N)[C@@H]2O)C[C@@H]2O[C@](O)(C[C@@H](O)C[C@@H](O)CC[C@H](O)[C@@H](O)C[C@@H](O)CC(=O)O[C@H]1C)C[C@H](O)[C@H]2C(=O)O ; strain: Clinical isolates ; measure: MIC ; read by: broth dilution ; agent: Candida guilliermondii ; result: 0.5 µg/mL
CC(=O)N1CCN(c2ccc(OC[C@H]3CO[C@](Cn4ccnc4)(c4ccc(Cl)cc4Cl)O3)cc2)CC1 ; strain: 24 clinical isolates ; measure: MIC90 ; read by: broth dilution ; agent: Candida guilliermondii ; result: 0.062 µg/mL
C[C@H]1[C@H](O)[C@@H](C)/C=C/C=C/C=C/C=C/C=C/C=C/C=C/[C@H](O[C@@H]2O[C@H](C)[C@@H](O)[C@H](N)[C@@H]2O)C[C@@H]2O[C@](O)(C[C@@H](O)C[C@@H](O)CC[C@H](O)[C@@H](O)C[C@@H](O)CC(=O)O[C@H]1C)C[C@H](O)[C@H]2C(=O)O ; strain: CBS 7987 ; measure: MIC ; read by: broth dilution ; agent: Candida dubliniensis ; result: 0.002 µg/mL
CC(=O)N1CCN(c2ccc(OC[C@H]3CO[C@](Cn4ccnc4)(c4ccc(Cl)cc4Cl)O3)cc2)CC1 ; strain: Clinical isolates ; measure: MIC ; agent: Candida spp. ; result: 32 µg/mL
C[C@H]1[C@H](O)[C@@H](C)/C=C/C=C/C=C/C=C/C=C/C=C/C=C/[C@H](O[C@@H]2O[C@H](C)[C@@H](O)[C@H](N)[C@@H]2O)C[C@@H]2O[C@](O)(C[C@@H](O)C[C@@H](O)CC[C@H](O)[C@@H](O)C[C@@H](O)CC(=O)O[C@H]1C)C[C@H](O)[C@H]2C(=O)O ; strain: 156 ; measure: inhibition ; read by: broth dilution ; tested at: 0.54 µM ; agent: Candida tropicalis ; result: 80%
CCOC(=O)C1C(c2ccc(C)cc2)CC(c2ccccc2)=CC12NCCN2 ; measure: MIC ; agent: Candida neoformans ; result: 25 µg/mL
C[C@@H](c1ncncc1F)[C@](O)(Cn1cncn1)c1ccc(F)cc1F ; strain: Clinical isolates ; measure: MIC ; read by: broth dilution ; agent: Candida guilliermondii ; result: 0.06 µg/mL
c1ccc([Se][Se]c2ccccc2)cc1 ; strain: ATCC 10231 ; measure: MFC ; read by: broth dilution ; agent: Candida glabrata ; result: >64 µg/mL
O=Cc1cc(O)ccc1O ; strain: PYCC 2705 ; measure: EC50 ; read by: broth dilution / turbidity ; agent: Candida lusitaniae ; result: 0.35 µM
O=c1c(O)c(-c2ccc(O)c(O)c2)oc2cc(O)cc(O)c12 ; strain: Clinical isolate 4 ; measure: MIC50 ; read by: broth dilution ; agent: Candida tropicalis ; result: >128 µg/mL
O=C(O)c1ccccc1O ; strain: ATCC 22019 ; measure: EC50 ; read by: broth dilution / turbidity ; agent: Candida parapsilosis ; result: 0.17 µM
CN1CCC2=C(CCCC2CCc2cccc(Cl)c2)C1 ; strain: C316 ; measure: MIC ; agent: Candida albicans ; result: 8 µg/mL
O=[N+]([O-])c1cc(CSc2nnnn2-c2ccc(Cl)c(Cl)c2)cc([N+](=O)[O-])c1 ; conditions: 24 h ; strain: E28 ; measure: EC80 ; read by: broth dilution ; agent: Candida krusei ; result: >125 µM
CCOC(=O)C1C(c2ccccc2)CC(c2ccc(OC)cc2)=CC12NCCN2 ; strain: Strains 6 and 6 ; measure: MIC ; agent: Candida spp. ; result: 12.5 µg/mL
CN1CCC2=C(CCCC2CCc2ccc(Cl)c(Cl)c2)C1 ; strain: 2402E ; measure: MIC ; agent: Candida albicans ; result: 31 µg/mL
Oc1ccccc1 ; measure: MIC ; read by: broth dilution ; agent: Candida dubliniensis ; result: >45260 µg/mL
CCC(C)n1ncn(-c2ccc(N3CCN(c4ccc(OC[C@H]5CO[C@](Cn6cncn6)(c6ccc(Cl)cc6Cl)O5)cc4)CC3)cc2)c1=O ; strain: A28924 ; measure: MIC ; agent: Candida albicans ; result: 0.25 µg/mL
C(/C=C/c1ccccc1)=NCCNCCN=C/C=C/c1ccccc1.[Br][Hg][Br] ; measure: zone ; read by: agar diffusion ; tested at: 30000 µg/mL ; agent: Candida albicans ; result: 26 mm
C[C@@H]1[C@H](O)[C@@H](C)/C=C/C=C/C=C/C=C/C=C/C=C/C=C/[C@H](OC2O[C@@H](C)[C@H](O)[C@@H](N)[C@H]2O)C[C@@H]2OC(O)(C[C@@H](O)C[C@@H](O)[C@H](O)CC[C@@H](O)C[C@@H](O)CC(=O)C[C@H]1C)C[C@H](O)[C@H]2C(=O)O ; strain: MTCC 1962 ; measure: MIC ; agent: Candida spp. ; result: 300 µg/mL
C[C@@H]([C@H]1CC[C@H](C)C(=O)C1)[C@H]1CC[C@]2(C)C3=C(CC[C@@]12C)[C@]1(C)CC[C@H](O)C(C)(C)[C@H]1CC3 ; strain: MTCC 183 ; measure: zone ; read by: agar diffusion / agar ; tested at: 0.2 µg/disc ; agent: Candida albicans ; result: 0 mm
COc1cc(C[C@H](C)[C@H](C)Cc2ccc(O)c(O)c2)ccc1O ; strain: ATCC 10231 ; measure: MIC80 ; read by: broth dilution ; agent: Candida albicans ; result: 62.5 µg/mL
C(/C=C/c1ccccc1)=NCCNCCN=C/C=C/c1ccccc1.[I][Hg][I] ; measure: zone ; read by: agar diffusion ; tested at: 20000 µg/mL ; agent: Candida albicans ; result: 40 mm
Cc1ccc(C(C)C)cc1O ; measure: MIC ; read by: broth dilution ; agent: Candida dubliniensis ; result: 250 µg/mL
c1ccc(CC2CCCc3cnccc32)cc1 ; strain: C316 ; measure: MIC ; agent: Candida albicans ; result: 16 µg/mL
C=CCc1ccc(O)c(-c2ccc(O)c(CC=C)c2)c1 ; strain: YL 318 ; measure: MIC ; read by: broth dilution ; agent: Candida albicans ; result: 64 µg/mL
CCOC(=O)C1C(c2ccc(C)cc2)CC(c2ccc(Cl)cc2)=CC12NCCN2 ; measure: MIC ; agent: Candida neoformans ; result: 6.25 µg/mL
C=CCc1ccc(OC)c(OC)c1 ; measure: MIC ; read by: broth dilution ; agent: Candida dubliniensis ; result: 3830 µg/mL
CCOC(=O)C1C(c2ccc(OC)cc2)CC(c2ccccc2)=CC12NCCN2 ; measure: MIC ; agent: Candida neoformans ; result: 25 µg/mL
Clc1ccc(COC(Cn2ccnc2)c2ccc(Cl)cc2Cl)c(Cl)c1 ; strain: LM 120 ; measure: MIC100 ; read by: broth dilution ; agent: Candida krusei ; result: 32 µg/mL
CC(C)=CCOc1ccc(C2CC(=O)c3ccc(O)cc3O2)cc1 ; measure: zone ; read by: agar diffusion / agar ; tested at: 100 µg/mL ; agent: Candida dubliniensis ; result: 0 mm
COC(=O)/C=C1/NN=C(c2ccccn2)N(c2ccccn2)C1=O ; strain: Clinical isolates (7 strains) ; measure: MIC50 ; read by: agar diffusion ; agent: Candida spp. ; result: 512 µg/mL
CCOC(=O)C1C(c2ccccc2)CC(c2ccccc2)=CC12NCCN2 ; measure: MIC ; agent: Candida neoformans ; result: 100 µg/mL
C=CCOc1ccc(C2CC(=O)c3c(O)cc(O)cc3O2)cc1 ; measure: zone ; read by: agar diffusion / agar ; tested at: 100 µg/mL ; agent: Candida dubliniensis ; result: 0 mm
CN1CCC2=C(CCCC2CCc2c(Cl)cccc2Cl)C1 ; strain: 2381E ; measure: MIC ; agent: Candida albicans ; result: 16 µg/mL
Clc1ccc(COC(Cn2ccnc2)c2ccc(Cl)cc2Cl)c(Cl)c1 ; strain: Clinical isolates ; measure: MIC ; read by: broth dilution ; agent: Candida guilliermondii ; result: 0.5 µg/mL
COc1ccccc1O ; measure: MIC ; read by: broth dilution ; agent: Candida dubliniensis ; result: 10 µg/mL
CN1CCC2=C(CCCC2CCc2ccc(Br)cc2)C1 ; strain: 2381E ; measure: MIC ; agent: Candida albicans ; result: 16 µg/mL

2 of the rows above, restated:

{"SMILES": "C(/C=C/c1ccccc1)=NCCNCCN=C/C=C/c1ccccc1.[I][Hg][I]", "measure": "zone", "read by": "agar diffusion", "tested at": "20000 µg/mL", "agent": "Candida albicans", "result": "40 mm"}
{"SMILES": "CC(C)=CCOc1ccc(C2CC(=O)c3ccc(O)cc3O2)cc1", "measure": "zone", "read by": "agar diffusion / agar", "tested at": "100 µg/mL", "agent": "Candida dubliniensis", "result": "0 mm"}

Zones are inhibition diameters on agar. Rows are shuffled and stem from different studies. ECn is the concentration giving n% inhibition of infection, replication or growth. Percent inhibition refers to the dose given; in toxicity tests it is the harm to the cells.